Reference: PubChem BioAssay AID624099 (ICCB-Longwood, 2012)
Screen: 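Knock-downs relieving repression by E2 of an HPV18 LCR luciferase reporter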 (primary screen). System: human C33A cervical carcinoma cells (HPV-negative) stably expressing BPV1 E2 and an HPV18 LCR luciferase reporter. Reagent: siRNA pool against human genes, 40 nM. Duration: 72 h. Measurement: 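Per-well luciferase luminescence, z-scored on each plate against the plate mean and SD with control wells left out, then averaged across three replicate plates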. Scale: mean z-score and z-score: higher = stronger reporter signal, weaker E2 silencing. Active means: 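Mean z ≥ 2 together with z ≥ 2 in two or more of the three replicates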.
Shown is one part, drawn at random, of about 21,000 reagents tested. 497 of all reagents (2.4%) count as active. 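Higher z means weaker E2 silencing; only reporter increases were scored, and knock-downs that hurt cell survival may mask genuine repressor factors.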 Unmarked entries are inactive.

The first 2 entries as a preview:
{"gene symbol":"RPL26L1 (GeneID 51121)","mean z-score":-0.89,"z-score, replicate A":-1.14,"z-score, replicate B":-0.37,"z-score, replicate C":-1.16}
{"gene symbol":"TMED7 (GeneID 51014)","mean z-score":0.13,"z-score, replicate A":0.19,"z-score, replicate B":0.05,"z-score, replicate C":0.14}

Results, from the first entry:
{"gene symbol":"RPL26L1 (GeneID 51121)","mean z-score":-0.89,"z-score, replicate A":-1.14,"z-score, replicate B":-0.37,"z-score, replicate C":-1.16}
{"gene symbol":"TMED7 (GeneID 51014)","mean z-score":0.13,"z-score, replicate A":0.19,"z-score, replicate B":0.05,"z-score, replicate C":0.14}
{"gene symbol":"NRROS (GeneID 375387)","mean z-score":0.95,"z-score, replicate A":0.62,"z-score, replicate B":1.7,"z-score, replicate C":0.51}
{"gene symbol":"XAGE3 (GeneID 170626)","mean z-score":0.22,"z-score, replicate A":0.56,"z-score, replicate B":-0.45,"z-score, replicate C":0.53}
{"gene symbol":"RFFL (GeneID 117584)","mean z-score":-0.5,"z-score, replicate A":-0.68,"z-score, replicate B":-0.49,"z-score, replicate C":-0.33}
{"gene symbol":"TTYH2 (GeneID 94015)","mean z-score":1.49,"z-score, replicate A":1.63,"z-score, replicate B":1.79,"z-score, replicate C":1.05}
{"gene symbol":"BPI (GeneID 671)","mean z-score":0.15,"z-score, replicate A":0.19,"z-score, replicate B":0,"z-score, replicate C":0.26}
{"gene symbol":"TM4SF4 (GeneID 7104)","mean z-score":1.61,"z-score, replicate A":1.46,"z-score, replicate B":1.77,"z-score, replicate C":1.6}
{"gene symbol":"ZMIZ2 (GeneID 83637)","mean z-score":-0.21,"z-score, replicate A":-0.46,"z-score, replicate B":0.04,"z-score, replicate C":-0.22}
{"gene symbol":"APOC1 (GeneID 341)","mean z-score":0.75,"z-score, replicate A":1.03,"z-score, replicate B":0.67,"z-score, replicate C":0.55}
{"gene symbol":"NCR3 (GeneID 259197)","mean z-score":0.1,"z-score, replicate A":-0.18,"z-score, replicate B":0.33,"z-score, replicate C":0.14}
{"gene symbol":"VHLL (GeneID 391104)","mean z-score":1.1,"z-score, replicate A":1.16,"z-score, replicate B":1.28,"z-score, replicate C":0.84}
{"gene symbol":"LINC00663 (GeneID 284440)","mean z-score":0.93,"z-score, replicate A":0.62,"z-score, replicate B":1.38,"z-score, replicate C":0.78}
{"gene symbol":"LINC01622 (GeneID 285768)","mean z-score":-0.01,"z-score, replicate A":0.09,"z-score, replicate B":-0.04,"z-score, replicate C":-0.09}
{"gene symbol":"ADGRB2 (GeneID 576)","mean z-score":-1.63,"z-score, replicate A":-1.59,"z-score, replicate B":-1.75,"z-score, replicate C":-1.55}
{"gene symbol":"HAX1 (GeneID 10456)","mean z-score":0.08,"z-score, replicate A":0.06,"z-score, replicate B":-0.09,"z-score, replicate C":0.26}
{"gene symbol":"ALKBH8 (GeneID 91801)","mean z-score":0,"z-score, replicate A":0.34,"z-score, replicate B":0.09,"z-score, replicate C":-0.42}
{"gene symbol":"GIMAP4 (GeneID 55303)","mean z-score":-0.07,"z-score, replicate A":0.11,"z-score, replicate B":0.17,"z-score, replicate C":-0.49}
{"gene symbol":"NOXRED1 (GeneID 122945)","mean z-score":-0.08,"z-score, replicate A":0.19,"z-score, replicate B":-0.22,"z-score, replicate C":-0.2}
{"gene symbol":"RNF2 (GeneID 6045)","mean z-score":0.48,"z-score, replicate A":0.5,"z-score, replicate B":0.45,"z-score, replicate C":0.49}
{"gene symbol":"GNL2 (GeneID 29889)","mean z-score":-1.52,"z-score, replicate A":-1.14,"z-score, replicate B":-1.58,"z-score, replicate C":-1.85}
